{"source": "PubChem BioAssay AID602276", "about": "(University of Pittsburgh Molecular Library Screening Center, 2012)", "note": "This is a selection; strong and weak results do not stand in their true shares. Active and inactive are the calls of the source.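 How the source made its calls: active means inhibition at or above 50% at 10 µM; inactive means inhibition below 50%.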"}
{"experiment": "inhibitors of Sendai virus-induced IRF3 signaling, primary screen, TLR/RLR signaling modifier project, cell-based, Sendai virus stimulus, luciferase, 10K MLSCN set (AID 602276);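 further: firefly luciferase from ISG56 promoter only with Renilla not read in this screen; 0% = Sendai virus plus DMSO and 100% = medium plus DMSO without virus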", "conditions": "HEK293 RL24 IRF3 luciferase reporter, at 10 µM, active compounds read high"}
{"smiles": "Cc1ccc(C)c(NP(C)(=O)Oc2ccccc2)c1", "note": "(stereo not given)", "inhibition": "inactive: 16.2%"}
{"smiles": "CP(=S)(Nn1cnnc1)Oc1ccccc1", "note": "(stereo not given)", "inhibition": "inactive: 1.28%"}
{"smiles": "CP(=O)(Nc1ccccn1)Oc1ccccc1", "note": "(stereo not given)", "inhibition": "inactive: 10.4%"}
{"smiles": "CN(C)CCOC(=O)C(O)(c1ccccc1)C1CCCCC1", "note": "(stereo not given)", "inhibition": "inactive: 0.631%"}
{"smiles": "CP(=O)(Nc1ccc2c(c1)OCCO2)Oc1ccccc1", "note": "(stereo not given)", "inhibition": "inactive: 11.7%"}
